From patent US20260234738A1 (Regeneron, published 2026) come the findings set out here.

B1: mAb11006 (antibody, V domains shown)
VH: EVQLVESGGGLVQPGGSLRLSCAASGFIVSRNYMSWVRQAPGKGLEWVSVIYSGGSTFYADSVKGRFTISRHNSKNTLYLQMNSLKAEDTAVYYCARELRGYFDYWGQGTLVTVSS
VL: DIQLTQSPSFLSASVGDRVTITCWASQGISSYLAWYQQKPGKAPKLLIYAASTLQSGVPSRFSGSGSGTEFTLTISSLQPEDFATYYCQLLNSYPYTFGQGTKLEIKR
B2: mAb11008 (antibody, V domains shown)
VH: EVQLVESGGGLVQPGGSLRLSCAASGFTVSSNYMTWVRQAPGKGLEWVSVIYSGGSTFYADSVKGRFTISRHNSENTLYLQMNSLRAEDTAVYYCARDLAAAGTDYWGQGALVTVSS
VL: B1 VL with E81D, L90H, P95L
B3: mAb11004 (antibody, V domains shown)
VH: QVQLVESGGGVVQPGRSLRLSCVASGFTFSIYGMDWVRQAPGKGLEWVAVISYDGSNKYYADSVKGRFTISRDNSKNTLYLQMNSLRPEDTAVYYCAKDREAAADAFDIWGQGTMVTVSS
VL: DIQMTQSPSSVSASVGDRVTITCRASQGISSWLAWYQQKPGKAPKLLIYAASSLHSGVPSRFSGSGSGTDFTLTISSLQPEDFATYYCQQANSFRLTFGGGTKVEIKR
B4: mAb10998 (antibody, V domains shown)
VH: EVQLVESGGGLVHPGGSLRLSCAASGLTVSSNYMSWVRQAPGKGLEWVSVIYSGGSTYYADSVKGRFTISRHNSKNTLFLQMNSLRAEDTAVYYCARDRPITGTTLDVWGQGTTVTVSS
VL: DIQMTQSPSSLFASVGDRVTITCRASQSISSYLNWYQQKPGKAPKLLIYAASSLQSGVPSRFSGSGSGTDFTLTISSLQPEDFAFYYCQQTYSTPPITFGQGTRLEIKR
B5: mAb10998 (antibody, V domains shown)
VH: B4 VH
VL: B4 VL
B6: mAb10985 (antibody, V domains shown)
VH: EVQLVESGGGLVQPGRSLRLSCAASGFTFDDYAMHWVRQAPGKGLEWVSGISWNRGSIGYADSVKGRFTISRDNAKNSLYLQMSSLRAEDTALYYCAKDGERWDSVVVPSARNGMDVWGQGTTVTVSS
VL: QSVLTQPPSVSGAPGQRVTISCTGSSSNIGAGYDVHWYQQLPGTAPKLLIYGNSNRPSGVPDRFSGSKSGTSASLAITGLQAEDEADYYCQSYDSSLSGSYVFGTGTKVTVLG
B7: mAb11006 (antibody, V domains shown)
VH: B1 VH
VL: B1 VL
B8: mAb10930 (antibody, V domains shown)
VH: EVQLVESGGGLVQPGRSLRLSCAASGFTFDDYAMYWVRQAPGKGLEWVSGISWNSGSIGYADSVKGRFTISRDNAKNSLYLQMNSLRAADTALYYCAKDKDWNSRGYYYYGMDVWGQGTTVTVSS
VL: not shown
B9: mAb10935 (antibody, V domains shown)
VH: EVQLVESGGGLVQPGGSLRLSCAASGFTVSSNYMSWVRQAPGKGLEWVSLIYSGGSTYYADSVKGRFTISRHNSKNTLYLQMNSLRSEDTAVYYCARVPLGDYYYGMDVWGQGTTVTVSS
VL: DIQMTQSPSSLSASVGDRVTITCQASQDINKYLNWYQQKPGKAPKLLIYDASNLETGVPSRFSGSGSGTDFTFTISSLQPEDIATYYCQQSDNLPLTFGGGTKVEIKR

Where a chain is given by its changes, count along the chain named.

For one assay, the target named is T1, SARS-CoV-2 Spike Protein (RBD)(R319-F541).mmH (SARS-CoV-2). Description: Luminex beads, supernatant.
On to B1, for which the “Binding signal (MFI)” value worked out at 5130 MFI.
As to B2, the “Binding signal (MFI)” value turned out to be 4050 MFI.
Regarding B3, the “Binding signal (MFI)” value turned out to be 3350 MFI.
Consider B4, for which the “Binding signal (MFI)” value was 1850 MFI.

The next assay addresses T1, SARS-CoV-2 Spike Protein …. Description: Luminex beads, supernatant. The source holds these as a separate data set.
For the molecule B1, the “Binding signal (MFI)” value was 4740 MFI.
B2: the “Binding signal (MFI)” value is 3180 MFI.
B3: the “Binding signal (MFI)” value amounted to 11300 MFI.
Turning to B4, the “Binding signal (MFI)” value was found to be 3840 MFI.

For another assay, the target named is SARS-COV-2 RBD-MMH (SARS-CoV-2). As to the kind of experiment: SPR.
As to B5, the “t½” value was determined as 0.5 min.
On the same count and under the same terms, to B6 belongs 8 min.

A further assay has as its target SARS-COV-2 RBD extracellular domain expressed with a C-terminal myc-myc-hexahistidine (SARS-CoV-2). As to the kind of experiment: SPR. On the technique in general: Surface plasmon resonance follows binding to a sensor surface in real time, without labels.
Consider B7, for which the t½ is 0.8 min.
As to B8, the t½ amounted to 0.6 min.
B9: the t½ turned out to be 0.3 min.

Broadly, the t½ is the time needed for the level to fall by half in the phase considered.
